Anti-infective test results gathered from many reports (values: NIAID ChemDB through PubChem).

All rows: tests in culture; agent: Candida albicans; measure: MIC

Conditions beyond the fields shown may differ between rows. Two numbers with a dash give a range or band.

COc1ccc(OC)c(C(=O)/C=C/c2cc3cc(OC)c(OC)cc3nc2Cl)c1 ; strain or isolate: ATCC 10231 ; result: >50 µg/mL
CN1CCC2=C(CCCC2CCc2c(Cl)cccc2Cl)C1 ; strain or isolate: C316 ; result: 16 µg/mL
Cc1c(N2CCCC(CN)C2)c(F)cn2c(=O)c(C(=O)O)cc(C3CC3)c12 ; strain or isolate: CCH442 ; result: >100 µg/mL
COc1ccc2oc(=O)ccc2c1 ; strain or isolate: ATCC 14053 ; result: 500 µg/mL
COc1ccc(/C=C/C(=O)c2ccccc2)c(OC)c1 ; strain or isolate: ATCC 10231 ; result: >50 µg/mL
CC(C)(C)C1CCC(CN2C3=NC[C@H](C4CCCCC4)N3C[C@@H]2CC2CCCCC2)CC1 ; strain or isolate: ATCC 10231 ; result: 10–16 µg/mL
COc1cc(O)c2c(c1)C(=O)c1c(cc3c(c1O)-c1c(cc(C)c(C(=O)N[C@H](CO)C(=O)O)c1O)[C@H](O[C@@H]1O[C@H](C)[C@H](O)[C@H](O)[C@H]1O)[C@H]3O)C2=O ; strain or isolate: Juntendo 83-2-14 ; result: 1.6 µg/mL
C[C@H](CCC(=O)NCCNCCNC(=O)CC[C@@H](C)[C@H]1CCC2C3C(C[C@H](C)[C@@]21O)[C@@]1(C)CC[C@@H](O)CC1C[C@H]3O)[C@H]1CCC2C3C(C[C@H](C)[C@@]21O)[C@@]1(C)CC[C@@H](O)CC1C[C@H]3O ; strain or isolate: Isolate 3 ; result: 0.011 µM
CC1=C(N2CCC(ON)C2)C(F)=CN2C(=O)C(C(=O)O)=CC(C3CC3)C12 ; strain or isolate: CCH442 ; result: 100 µg/mL
CCN1C2=NC[C@H](Cc3ccccc3)N2C[C@H]1CC1CCCCC1 ; strain or isolate: ATCC 10231 ; result: >64 µg/mL
Cc1c(N2CC3CCCNC3C2)c(F)cn2c(=O)c(C(=O)O)cc(C3CC3)c12 ; strain or isolate: CCH442 ; result: >100 µg/mL
COC(=O)C(C(=O)OC)C(CC(=O)c1ccccc1)c1cccc(OC)c1OC ; strain or isolate: ATCC 10231 ; result: >50 µg/mL
NC1CCN(c2c(F)cn3c(=O)c(C(=O)O)cc(C4CC4)c3c2F)C1 ; strain or isolate: CCH442 ; result: >100 µg/mL
COc1cc2ccc(=O)oc2c(O)c1O ; strain or isolate: ATCC 14053 ; result: 500 µg/mL
CN1CCC2=C(CCCC2CCc2ccc(Br)cc2)C1 ; strain or isolate: 1208E ; result: 16 µg/mL
CC1=C(N2CCC[C@@H](NC(=O)[C@H](C)N)C2)C(F)=CN2C(=O)C(C(=O)O)=CC(C3CC3)C12 ; strain or isolate: CCH442 ; result: >100 µg/mL
O=c1ccc2cc(Cl)ccc2o1 ; strain or isolate: ATCC 14053 ; result: 500 µg/mL
Clc1ccc(CCC2CCCc3cnccc32)cc1Cl ; strain or isolate: C316 ; result: >125 µg/mL
CCCCCCCCC[C@@H](O)[C@H](C)N ; strain or isolate: MTCC 3958 ; result: 19.8 µM
Cc1c(N2CCC(C(C)(C)N)C2)c(F)cn2c(=O)c(C(=O)O)cc(C3CC3)c12 ; strain or isolate: CCH442 ; result: >100 µg/mL
CC(C)(C)C1CCC(CN2C3=NC[C@H](C4CCCCC4)N3C[C@H]2CC2CCCCC2)CC1 ; strain or isolate: ATCC 10231 ; result: 5–8 µg/mL
O=C(/C=C/c1ccc([N+](=O)[O-])cc1)c1ccccc1 ; strain or isolate: ATCC 10231 ; result: >50 µg/mL
NC1CCN(c2c(F)cn3c(=O)c(C(=O)O)cc(C4CC4)c3c2Cl)C1.O=C(O)C(F)(F)F ; strain or isolate: CCH442 ; result: >100 µg/mL
CN1CCC2=C(CCCC2CCc2ccc(Cl)cc2)C1 ; strain or isolate: 1208E ; result: 4 µg/mL
C1CCC(C[C@H]2CN=C3N2C[C@@H](C2CCCCC2)N3CCC23CC4CC(CC(C4)C2)C3)CC1 ; strain or isolate: ATCC 10231 ; result: 10–16 µg/mL
Cc1c(N2CCNC(C)C2)c(F)cn2c(=O)c(C(=O)O)cc(C3CC3)c12.Cl ; strain or isolate: CCH442 ; result: >100 µg/mL
CO[C@H]1OC(=O)C[C@@]2(O)[C@@]13O[C@@H]3C1OC(=O)[C@@]3(C)CCC[C@@]2(C)[C@@H]13 ; strain or isolate: ATCC 90028 ; result: >64 µg/mL
Cc1c(N2CCCC(CF)C2)c(F)cn2c(=O)c(C(=O)O)cc(C3CC3)c12 ; strain or isolate: CCH442 ; result: >100 µg/mL
CC1=C(N2CCC(F)(CN)C2)C(F)=CN2C(=O)C(C(=O)O)=CC(C3CC3)C12 ; strain or isolate: CCH442 ; result: >100 µg/mL
Clc1ccc(CCC2CCCc3cnccc32)cc1 ; strain or isolate: 2381E ; result: 8 µg/mL
CC(=O)Oc1ccc2ccc(=O)oc2c1 ; strain or isolate: ATCC 14053 ; result: 250 µg/mL
C1CCC(C[C@H]2CN=C3N(CCC45CC6CC(CC(C6)C4)C5)[C@@H](CC4CCCCC4)CN32)CC1 ; strain or isolate: ATCC 10231 ; result: 5–8 µg/mL
COc1ccc(CCC2CCCC3=C2CCN(C)C3)cc1 ; strain or isolate: C316 ; result: 62 µg/mL
C[C@@]12CCC[C@]3(C)C4=CC(=O)OC[C@]45O[C@@H]5C(OC1=O)[C@@H]23 ; strain or isolate: ATCC 90028 ; result: 32 µg/mL
O=c1ccc2cc([N+](=O)[O-])ccc2o1 ; strain or isolate: ATCC 14053 ; result: 500 µg/mL
Cc1c(N2CCC(CN)(C(F)(F)F)C2)c(F)cn2c(=O)c(C(=O)O)cc(C3CC3)c12 ; strain or isolate: CCH442 ; result: >100 µg/mL
OC(Cn1cncn1)(Cn1cncn1)c1ccc(F)cc1F ; strain or isolate: YL 331 ; method: broth dilution ; result: 512 µg/mL
O=C(/C=C/c1ccc(Cl)cc1Cl)c1ccccc1 ; strain or isolate: ATCC 10231 ; result: >50 µg/mL
CCC[C@H](N)C(=O)N[C@H]1CCN(c2c(F)cn3c(=O)c(C(=O)O)cc(C4CC4)c3c2C)C1.Cl ; strain or isolate: CCH442 ; result: >100 µg/mL
C[C@H]1[C@H](O)[C@@H](C)/C=C/C=C/C=C/C=C/C=C/C=C/C=C/[C@H](O[C@@H]2O[C@H](C)[C@@H](O)[C@H](N)[C@@H]2O)C[C@@H]2O[C@](O)(C[C@@H](O)C[C@@H](O)CC[C@H](O)[C@@H](O)C[C@@H](O)CC(=O)O[C@H]1C)C[C@H](O)[C@H]2C(=O)O ; strain or isolate: SKF ; result: 0.0125 µg/mL
CC1=C(N2CC[C@@H](CNCCF)C2)C(F)=CN2C(=O)C(C(=O)O)=CC(C3CC3)C12 ; strain or isolate: CCH442 ; result: >100 µg/mL
Cc1cnccc1CCCc1ccccc1 ; strain or isolate: C316 ; result: 16 µg/mL
CCCCN1C2=NC[C@H](Cc3ccccc3)N2C[C@@H]1Cc1ccccc1 ; strain or isolate: ATCC 10231 ; result: >250 µg/mL
CN1CC[C@H]2[C@@H](CC[C@@H]3c4cc(Br)ccc4CC[C@H]23)C1 ; strain or isolate: C316 ; result: >125 µg/mL
C1CCC(C[C@@H]2CN3C(=NC[C@@H]3CC3CCCCC3)N2CCC23CC4CC(CC(C4)C2)C3)CC1 ; strain or isolate: ATCC 10231 ; result: 4–8 µg/mL
C[C@@H](c1nc(-c2ccc(C#N)cc2)cs1)[C@](O)(Cn1cnnc1)c1ccc(F)cc1F ; strain or isolate: A14058 ; result: 0.5 µg/mL
CCN1C2=NC[C@H](CC3CCCCC3)N2C[C@@H]1Cc1ccccc1 ; strain or isolate: ATCC 10231 ; result: >64 µg/mL
CN(C/C=C/C#CC(C)(C)C)Cc1cccc2ccccc12 ; strain or isolate: SC5314 ; result: >10.5 µg/mL
COC(=O)C(C(=O)OC)C(CC(=O)c1ccccc1)c1ccc2ccccc2c1 ; strain or isolate: ATCC 10231 ; result: >50 µg/mL